# In patent US9605014B2, “Glycomimetics to inhibit pathogen-host interactions” (priority 2012, dated 2017):
# System: haemagglutinin
# Assay: Average Φ and Ψ angles of Neu5Ac-α-(2-3)-Gal from PDB X-ray crystal structures with haemagglutinin
# Set-up: species or system influenza
# Settings: PDB average of 1RVX, 1RV0, 1JSN, 3HTP, 1MQM
structure (smiles),measurement,value
CC(=O)NC1C(O)CC(OC2C(O)C(O)OC(CO)C2O)(C(=O)O)OC1C(O)C(O)CO (stereo not drawn) [Neu5Ac-α-(2-3)-Gal],Phi Φ,188.06
same,Psi Ψ,328.38
